SMILES strings stand for the structures. The entries are a selection whose mix differs from that of the whole data set. Some salts and complexes are drawn in separate pieces, as the source files them; their charges need not balance. Active and inactive are the calls of the source. Calls follow the shape of the dose curve; as a rule, active = well fitted inhibition curve with a large enough effect; inconclusive = small, poorly fitted or top-dose-only effect; inactive = flat fitted curve, though single readings scatter.
% is scaled to controls: 0 for no effect and ±100 for the full control effect.

The experiment deals with pyruvate kinase (Trypanosoma brucei) (UniProt Q57TT1). Nature of the experiment: qHTS of Trypanosoma Brucei Inhibitors. Also: nearly all actives have a fitted effect of over 50% in size. The conditions noted are these: TbPYK enzyme, Kinase-Glo Plus ATP luminescence, 45 min; at 76.8 µM (top of the series). Background: qHTS replaces the single test concentration by a dilution series.
With `O=C1CCN(Cc2ccccc2)CC1`, the activity, negative = inhibition was inactive: 3.9%.

`O=C(NCC1(N2CCOCC2)CCCCC1)c1ccc(Cl)cc1`: the activity, negative = inhibition was inactive: 4.59%.

With `CC(C)(C)n1nnnc1C(c1ccccc1)N1CCC(n2c(=O)[nH]c3ccccc32)CC1` (configuration not stated), the activity, negative = inhibition was inactive: 2.59%.

For the molecule `CCOC(=O)N1CCC(Nc2ccc(F)cc2)CC1`, the activity, negative = inhibition is inactive: 4.57%.

As for `COc1ccc(NC2CCN(CCc3ccccc3)CC2)c(OC)c1`, the activity, negative = inhibition was inactive: -18.1%.

In the case of `CCCCOc1ccc(C(=O)NCC2(N3CCOCC3)CCCCC2)cc1`, the activity, negative = inhibition is inactive: -0.113%.

Take `CCCCn1nnnc1C(c1cc2ccccc2o1)N1CCC(n2c(=O)[nH]c3ccccc32)CC1` (configuration not stated): the activity, negative = inhibition was inactive: -0.0272%.

For `O=P1(N(CCCl)CCCl)SCCCS1`, the activity, negative = inhibition was inactive: -4.42%.

As to `O=C(NCC1(N2CCCCC2)CCCCC1)c1ccc(F)cc1`, the activity, negative = inhibition was inactive: -9.65%.

`COc1ccccc1C(=O)NCC1(N2CCOCC2)CCCCC1`: the activity, negative = inhibition was inactive: -1.35%.

In the case of `O=c1[nH]c2ccccc2n1C1CCN(C(c2ccccc2)c2nnnn2C2CCCCC2)CC1` (configuration not stated), the activity, negative = inhibition was inactive: 2.19%.

Take `O=c1[nH]c2ccccc2n1C1CCN(C(c2cccc3ccccc23)c2nnnn2C2CCCC2)CC1` (configuration not stated): the activity, negative = inhibition is inactive: -0.793%.

On to `CCOC(=O)N1CCC(Nc2cccc(C)c2)CC1`, for which the activity, negative = inhibition was inactive: -0.488%.

As to `COc1cc(C(=O)NCC2(N(C)C)CCCCC2)ccc1OC(F)F`, the activity, negative = inhibition is inactive: 1.18%.

As to `O=C(NCC1(N2CCCCC2)CCCCC1)c1cccs1`, the activity, negative = inhibition is inactive: -3.47%.

In the case of `CCCCn1nnnc1C(CC)N1CCC(n2c(=O)[nH]c3ccccc32)CC1` (configuration not stated), the activity, negative = inhibition is inactive: 5.57%.

Take `CCCCn1nnnc1C(c1cccs1)N1CCC(n2c(=O)[nH]c3ccccc32)CC1` (configuration not stated): the activity, negative = inhibition is inactive: 5.43%.

With `O=C(NCC1(N2CCCCC2)CCCCC1)c1ccc(=O)[nH]c1`, the activity, negative = inhibition was inactive: 2.76%.

For `CC(C)(C)OC(=O)N1CCC(N(C(=O)c2ccccc2)c2ccc(F)cc2)CC1`, the activity, negative = inhibition is inactive: -1.3%.

As to `COc1ccc(C(=O)NCC2(N3CCCCC3)CCCCC2)c(OC)c1OC`, the activity, negative = inhibition was inactive: -1.57%.

For `CCC(c1nnnn1C1CCCC1)N1CCC(n2c(=O)[nH]c3ccccc32)CC1` (configuration not stated), the activity, negative = inhibition is inactive: -3.9%.

Regarding `COc1ccc(C(=O)NCC2(N3CCCCC3)CCCCC2)cc1`, the activity, negative = inhibition was inactive: 1.48%.

With `Cc1cccc(NC2(C#N)CCN(Cc3ccccc3)CC2)c1`, the activity, negative = inhibition was inactive: 5.02%.

As to `CSc1ccccc1C(=O)NCC1(N2CCCCC2)CCCCC1`, the activity, negative = inhibition was inactive: -2.01%.

For `O=C(NCC1(N2CCOCC2)CCCCC1)c1cc2ccccc2o1`, the activity, negative = inhibition is inactive: -10.7%.

In the case of `Cc1cc(C)cc(N(C(=O)c2ccccc2)C2CCN(C(=O)OC(C)(C)C)CC2)c1`, the activity, negative = inhibition is inactive: 2.84%.

Regarding `O=C(NCC1(N2CCCCC2)CCCCC1)c1ccc(Cl)nc1`, the activity, negative = inhibition is inactive: 3.5%.

On to `O=c1[nH]c2ccccc2n1C1CCN(C(c2ccccc2OC(F)(F)F)c2nnnn2C2CCCCC2)CC1` (configuration not stated), for which the activity, negative = inhibition is inactive: 2.67%.

On to `CCCCn1nnnc1C(c1ccc(OC)cc1)N1CCC(n2c(=O)[nH]c3ccccc32)CC1` (configuration not stated), for which the activity, negative = inhibition was inactive: 3.84%.

As for `CCOC(=O)N1CCC(Nc2ccc(OC)cc2)CC1`, the activity, negative = inhibition is inactive: -8.83%.

Regarding `COc1ccc(Cl)cc1C(=O)NCC1(N2CCOCC2)CCCCC1`, the activity, negative = inhibition was inactive: -2.36%.

Consider `O=C1C(O)=C([N+](=O)[O-])C(=O)C(O)=C1[N+](=O)[O-]`, for which the activity, negative = inhibition is inactive: 5.9%.

For `O=C(NCC1(N2CCCCC2)CCCCC1)c1ccc(Cl)s1`, the activity, negative = inhibition is inactive: -3.69%.

Turning to `N#CC1(Nc2ccccc2)CCN(Cc2ccccc2)CC1`, the activity, negative = inhibition was inactive: 9.34%.

Take `O=c1[nH]c2ccccc2n1C1CCN(C(c2cc3ccccc3o2)c2nnnn2C2CCCCC2)CC1` (configuration not stated): the activity, negative = inhibition was inactive: 1.04%.

Turning to `O=C(OC1CN2CCC1CC2)C1c2ccccc2Oc2ccccc21` (configuration not stated), the activity, negative = inhibition is inactive: -10.6%.

For the molecule `CN(C)c1cccc(C(=O)NCC2(N3CCCCC3)CCCCC2)c1`, the activity, negative = inhibition is inactive: -14.4%.

`O=[N+]([O-])c1cc([N+](=O)[O-])c(OC2CCCCC2O)c([N+](=O)[O-])c1` (configuration not stated): the activity, negative = inhibition is inactive: -9.18%.

Turning to `COc1ccc(CN(CCCl)CCCl)cc1Cl`, the activity, negative = inhibition was inactive: -0.109%.

As for `CCCCn1nnnc1C(c1ccccc1OC(F)(F)F)N1CCC(n2c(=O)[nH]c3ccccc32)CC1` (configuration not stated), the activity, negative = inhibition was inactive: 4.05%.

In the case of `CC(C)c1ccc(NC2CCN(C(=O)OC(C)(C)C)CC2)cc1`, the activity, negative = inhibition was inactive: -10.9%.

With `CCCCn1nnnc1C(c1ccnc2ccccc12)N1CCC(n2c(=O)[nH]c3ccccc32)CC1` (configuration not stated), the activity, negative = inhibition is inactive: 0.885%.

For `CCC(c1nnnn1C(C)(C)C)N1CCC(n2c(=O)[nH]c3ccccc32)CC1` (configuration not stated), the activity, negative = inhibition was inactive: -11.5%.

With `O=C(NCC1(N2CCOCC2)CCCCC1)c1cc(F)c(F)cc1Cl`, the activity, negative = inhibition was inactive: 14%.

On to `COc1cc(OC)c(C(=O)NCC2(N(C)C)CCCCC2)cc1OC`, for which the activity, negative = inhibition was inactive: -11.1%.

As to `CN1CCC(Nc2cccc(F)c2)CC1`, the activity, negative = inhibition was inactive: 4.13%.

`COc1ccc2c(c1O)-c1c(O)c(OC)cc3c1[C@H](C2)[N+](C)(C)CC3.O=[N+]([O-])c1cc([N+](=O)[O-])c([O-])c([N+](=O)[O-])c1[O-]`: the activity, negative = inhibition is inactive: -1.95%.

On to `O=C(NCC1(N2CCCCC2)CCCCC1)c1cncc(Br)c1`, for which the activity, negative = inhibition is inactive: 4.43%.

Turning to `O=C(OC1CN2CCC1CC2)c1ccc([N+](=O)[O-])cc1` (configuration not stated), the activity, negative = inhibition is inactive: -0.743%.

With `O=C(NCC1(N2CCOCC2)CCCCC1)c1ccccc1Br`, the activity, negative = inhibition is inactive: 0.999%.

Turning to `CCCOc1ccc(C(=O)NCC2(N(C)C)CCCCC2)cc1OC`, the activity, negative = inhibition was inactive: -3.33%.

As for `CCCCOc1ccccc1C(=O)NCC1(N2CCOCC2)CCCCC1`, the activity, negative = inhibition is inactive: 2.32%.

Regarding `Cc1ccc(C(=O)NCC2(N(C)C)CCCCC2)o1`, the activity, negative = inhibition is inactive: 1.55%.

In the case of `COc1ccc(C(c2nnnn2C2CCCC2)N2CCC(n3c(=O)[nH]c4ccccc43)CC2)cc1` (configuration not stated), the activity, negative = inhibition is inactive: 0.693%.

For the molecule `O=[N+]([O-])c1cc([N+](=O)[O-])c(Nc2ccc(Cl)cc2)c([N+](=O)[O-])c1`, the activity, negative = inhibition is inactive: -7.21%.

For `O=C(NCC1(N2CCCCC2)CCCCC1)c1ccc(OC(F)F)cc1`, the activity, negative = inhibition was inactive: -5.18%.

Consider `CC(C)(C)n1nnnc1C(c1ccccc1OC(F)(F)F)N1CCC(n2c(=O)[nH]c3ccccc32)CC1` (configuration not stated), for which the activity, negative = inhibition is inactive: 3.36%.

Turning to `O=C(NCC1(N2CCCCC2)CCCCC1)c1cccc([N+](=O)[O-])c1`, the activity, negative = inhibition was inactive: 0.797%.

For `CCOc1ccc(C(=O)NCC2(N3CCOCC3)CCCCC2)cc1`, the activity, negative = inhibition was inactive: 3.66%.

As to `CSc1ccc(C(=O)NCC2(N3CCOCC3)CCCCC2)cc1`, the activity, negative = inhibition is inactive: 1.02%.

As for `O=c1[nH]c2ccccc2n1C1CCN(C(c2ccccc2OC(F)(F)F)c2nnnn2C2CCCC2)CC1` (configuration not stated), the activity, negative = inhibition is inactive: 4.05%.

On to `N#CC1(Nc2ccccc2)CCN(CCc2ccccc2)CC1`, for which the activity, negative = inhibition was inactive: -2.99%.

As for `CCN1CCC(Nc2ccc(Cl)cc2)CC1`, the activity, negative = inhibition is inactive: 1.54%.

As for `O=C(NCC1(N2CCCCC2)CCCCC1)c1cccc(C(F)(F)F)c1`, the activity, negative = inhibition is inactive: -24.7%.

With `CCCOc1cccc(C(=O)NCC2(N3CCOCC3)CCCCC2)c1`, the activity, negative = inhibition is inactive: 2.78%.

`O=[N+]([O-])c1cc([N+](=O)[O-])c(NCC2CCS(=O)(=O)C2)c([N+](=O)[O-])c1` (configuration not stated): the activity, negative = inhibition is inactive: -12.8%.

On to `CC(C)c1ccc(C(=O)NCC2(N3CCOCC3)CCCCC2)cc1`, for which the activity, negative = inhibition was inactive: 2.92%.

Take `COc1ccc(NC2CCN(C(=O)OC(C)(C)C)CC2)cc1`: the activity, negative = inhibition is inactive: -7.21%.

As for `CN1CCN(CCOC(=O)C(O)(c2ccccc2)c2ccccc2)CC1`, the activity, negative = inhibition was inactive: -2.32%.

Take `CCCCn1nnnc1C(c1cccc2ccccc12)N1CCC(n2c(=O)[nH]c3ccccc32)CC1` (configuration not stated): the activity, negative = inhibition is inactive: -0.31%.

Take `O=C(NCC1(N2CCOCC2)CCCCC1)c1cc(=O)[nH]c2ccccc12`: the activity, negative = inhibition is inactive: -1.21%.

Turning to `COc1cc(C(=O)NCC2(N3CCCCC3)CCCCC2)ccc1OC(F)F`, the activity, negative = inhibition was inactive: -2.46%.

Source of the values: PubChem BioAssay AID624173 (National Center for Advancing Translational Sciences (NCATS), 2012).
